The record followed here is patent publication US7087375B1, “Method for determining the mechanism of HIV RT inhibitors” (priority 2000, dated 2006).

Usually Km stands for the concentration of substrate that gives half-maximal velocity.

Experiment [1] concerns the target T1, HIV-1 RT mutant M41L, T69S-AG, L210W, R211K, L214F, T215Y (Human immunodeficiency virus type 1 group M subtype B, UniProt P04585, L797W/L801F/M628L/R798K/T656S/T802Y).
T1 construct: The final RT products, in a heterodimeric form (p66/p51); made in house
It is filed as biochemical. Conditions: d4T-TP assay.

Experiment [2] deals with T2, HIV-1 RT mutant M41L, T69S-SG, L210W, R211K, L214F, T215Y (Human immunodeficiency virus type 1 group M subtype B, UniProt P04585, L797W/L801F/M628L/R798K/T656S/T802Y).
T2 construct: The final RT products, in a heterodimeric form (p66/p51); made in house
It is filed as biochemical. Conditions: d4T-TP assay.

Where two headings read alike, the source gives them in different places.

Turning to “bromo-deoxyuridine-triphosphate [BrdUTP]”, the Michaelis constant (Km) in experiment [1] (ATP 3.2 mM) is 0.23 µM; in experiment [1] (without ATP), 0.13 µM; in experiment [2] (ATP 3.2 mM) it was 0.184 µM; in experiment [2] (without ATP), 0.083 µM.
